Target: SARS-CoV-2 spike receptor binding domain (RBD), residues 319 to 541 (SARS-CoV-2, UniProt P0DTC2, biotinylated for SPR; […] no label told for ELISA and crystals)
Test: SPR
Details: both partners purified

B1: VHH E (VHH)
VHH: QVQLVETGGGFVQPGGSLRLSCAASGVTLDYYAIGWFRQAPGKEREGVSCIGSSDGRTYYSDSVKGRFTISRDNAKNTVYLQMNSLKPEDTAVYYCALTVGTYYSGNYHYTCSDDMDYWGKGTQVTVSS
notes: also called nanobody E; source: E. coli WK6, periplasmic extract, purified (Ni-NTA, desalting or gel filtration)
Q: With B1 as the binder, how does the Kd read?
A: The Kd was 2 nM.

From PMC7932109 (Science (New York, N.y.), 2021)
